Measurements: patent US7666817B2, “Cellular libraries of peptide sequences (CLiPS) and methods of using the same” (The Regents of the University of California, priority 2005, dated 2010)

Tested on: tobacco etch virus protease (TEV)
Experiment: Dual-signal CLiPS, TEV cleavage of cell-surface displayed substrates
Type: biochemical
Conditions: SAPE labeling; for Fl after TEV: fluorescence after 1 hr with 10 units of TEV; for Fl: fluorescence of clonal population without TEV
Protocol: Construction of a control plasmid (pBSGXP2) expressing a fusion of the streptavidin-binding peptide (WCHPMWEVMCLR) (SEQ ID NO:34) (Rice et. al. 2006) and a GGSGGS (SEQ ID NO:01) sequence flanked by flexible linkers on the amino terminus of circularly permuted outer membrane X (CPX) and a binding peptide of SLP-76 (P2) on the carboxy-terminus was performed using primers 1, 2, and 3 with primers 4 and 5. […] Products were digested with SfiI and ligated to similarly digested pBAD33. A substrate library (pBS5XP2) of the form X5, where X is any amino acid, was constructed using PCR with a synthetic oligonucleotide incorporating NNS codons (primer 9) along with primers 1 and 8 (Table 2). The product was digested with SfiI and ligated into a similarly digested pBAD33 plasmid. Transformation of the plasmid library into electrocompetent MC1061 yielded 6×10^7 colony forming units.
A second substrate library (pBSToptP2) was created using primer 10 with primers 1 and 8. The product was digested with SfiI and ligated into a similarly digested pBAD33 plasmid. Transformation of the plasmid library into electrocompetent MC1061 yielded 5×10^7 colony forming units.
Streptavidin conjugated phycoerythrin (SAPE) was used for labeling streptavidin binding affinity ligand on the N- and C-termini of CPX (FIG. 15). […] Of the three fluorescent proteins AlajGFP-Mona gave a higher fluorescence and was used for all labeling. The resulting CPX scaffold required a 3 hr induction time due to the additional peptide that was fused to the C-terminus. For optimum labeling of cells without protease reaction, the cells were incubated for 1 hr at 22° C. with SAPE (50 nM) and AlajGFPM (250 nM). […] For the described example below 1 hr incubation was used.
For screening and clone analysis, overnight cultures were subcultured by dilution into fresh medium (1:50) and grown for 2 hrs at 37° C. The subculture was induced with 0.1% arabinose and incubated with shaking at room temperature for 3 hrs. Cell aliquots were washed with PBS (pH 8.0), and optical density at 600 nm (OD600) was measured to estimate cell concentration. Cells (10^8) were pelleted by centrifugation, the supernatant was removed, and the cells were resuspended in reaction buffer (10 μL). Following addition of the enzyme, the reaction mixture was incubated at room temperature on a rotary shaker. Cells were removed and diluted 100-fold in PBS to stop the reaction, pelleted by centrifugation, and resuspended in PBS containing SA-PE (50 nM) and AlajGFP-MONA. After incubation at room temperature (1 hr), cells were washed with PBS and analyzed or sorted using a FACSAria™ cell sorter (Becton, Dickinson and Company).
Specifically, for each sample, conversion was determined by flow cytometry analyses using the relationship
[formula] where (FL−) is the fluorescence after incubating without enzyme, (FL+) is fluorescence after incubation with enzyme, and (FL0) is fluorescence of unlabeled cells. For the recombinant FRET protein reactions, conversion was calculated by dividing the ratiometric FRET signal (yellow fluorescence/cyan fluorescence) by the FRET ratio that results from complete cleavage (Felber et al., Biotechniques 36:878-85 (2004)). For synthetic peptide reactions, conversion was calculated by dividing the fluorescence increase by the fluorescence change due to complete hydrolysis. The reported enteropeptidase KM for the physiological substrate tripsinogen is 17 μM (Light et al., J Biol Chem 259:13195-8 (1984)), but 600 μM for short DDDDK (SEQ ID NO:02) peptides (Lu et al., J Mol Biol 292:361-73 (1999)). Given KM for short peptides is much larger than the substrate concentrations that were used (<5 μM), the Michaelis-Menton model simplifies to
The reaction buffer for TEV assays was 50 mM Tris-Cl pH 8.0 supplemented with 20. mM NaCl and 2 mM CaCl2. […]

Row | Substance | Fl after TEV | Fl
1 | EEELY [B02] | 1081 | 3266
2 | WESLY [E11] | 1362 | 5049
3 | PEVIY [C10] | 1381 | 6109
4 | DRELY [F04] | 1421 | 5906
5 | LEQLI [B09] | 980 | 3254
6 | GEDLL [F09] | 1552 | 4809
7 | EEAVL [H07] | 1043 | 2992
8 | WEPLW [H08] | 1252 | 3971
